Values joined by “and” are separate entries in the source; they are usually repeats but may differ in a detail not shown here. Equal entries are not always repeated.
Experiment: Fluorescence emission and anisotropy of OTA without albumin
Details: for effect on fluorescence intensity of OTA in the absence of albumin, in words: ligand 0–30 μM, OTA 1.0 μM, inner-filter corrected

Compound	effect on fluorescence intensity of OTA in the absence of albumin, in words	fluorescence anisotropy (r) of OTA (without albumin, PBS pH 7.4)
hemin	strongly reduced	–
C=CC1=C(C)/C(=C/c2[nH]c(Cc3[nH]c(/C=C4\NC(=O)C(C)=C4C=C)c(C)c3CCC(=O)O)c(CCC(=O)O)c2C)NC1=O [bilirubin]	strongly reduced	–
C[C@@H]1Cc2c(Cl)cc(C(=O)N[C@@H](Cc3ccccc3)C(=O)O)c(O)c2C(=O)O1 [OTA, Ochratoxin A]	–	0.007 and 0.007 ± 0.001
